A mixed list of measured activities; the numbers were collected in NIAID ChemDB.

Shared fields: tests in culture; organism: Mycobacterium tuberculosis

ECn: concentration that inhibits the pathogen or its effect by n%.

SMILES	cells	read-out	read by	strain or isolate	tested at	conditions	result
Cl.Cl.O=C1c2ccccc2C(=O)c2c(NCCNCCO)ccc(NCCNCCO)c21		MIC bound	BACTEC	H37Rv			>12.5 µg/mL
CCCCc1nc(Cl)c(/C=N/NC(N)=S)n1CCCN1CCN(c2ccccc2C)CC1		MIC	agar	H37Rv			3.13 µg/mL
O=C1c2ccccc2-n2c1nc1ccc(F)cc1c2=O		MIC		H37Rv			0.13 µg/mL
c1ccc(C(=NOCCc2nnc(-c3ccccc3)o2)c2ccccc2)cc1		inhibition			12.5 µg/mL		7–56%
NC(=O)C1CCC2CN1C(=O)N2OS(=O)(=O)O		MIC		H37Rv			512 µg/mL
C[C@H](CC[C@H]1OC1(C)C)[C@H]1CC[C@@]2(C)[C@@H]3CC[C@H]4C(C)(C)C(=O)CC[C@@]45C[C@@]35CC[C@]12C		MIC					6 µg/mL
Clc1ccccc1-n1cc(CSC2c3ccccc3-c3ccccc32)nn1		MIC99	broth dilution	Specimen 192			>256 µM
NC[C@H]1O[C@H](O[C@H]2[C@H](O)[C@@H](O[C@H]3O[C@H](CO)[C@@H](O)[C@H](N)[C@H]3O)[C@H](N)C[C@@H]2N)[C@H](O)[C@@H](O)[C@@H]1O		MIC		Isolate 11			4 µg/mL
Cn1c(=S)sc2ccc3ccccc3c21		MIC bound	resazurin	H37Rv			>6.25 µg/mL
COC(=O)c1cn(-c2ccccn2)nn1		inhibition		H37Rv	6.25 µg/mL		25%
O=C1c2cc(C(F)(F)F)ccc2-n2c1nc1ccncc1c2=O		MIC		H37Rv			0.015 µg/mL
O=C(O)c1ccc2c(=O)c3cc([N+](=O)[O-])ccc3oc2c1		MIC		H37Rv			>32 µg/mL
COC(=O)c1cn(-c2cc(C)ccn2)nn1		inhibition		H37Rv	6.25 µg/mL		0%
CN[C@@H]1[C@H](O[C@H]2[C@H](O[C@H]3[C@H](O)[C@@H](O)[C@H](N=C(N)N)[C@@H](O)[C@@H]3N=C(N)N)O[C@@H](C)[C@]2(O)C=O)O[C@@H](CO)[C@H](O)[C@H]1O		EC50	resazurin	H37Ra			6.25 µg/mL
Cc1c(C(=O)CC(=O)C(=O)Nc2c(C(C)C)cccc2C(C)C)[n+](=O)c2ccccc2n1[O-]		inhibition	resazurin	H37Rv	6.25 µg/mL		-21%
Nc1ccc(-c2nnc(CCON=C(c3ccccc3)c3ccccc3)o2)cc1		inhibition			12.5 µg/mL		7–56%
O=C1CCCC2=C1C(c1ccccn1)C1=C(CCCC1=O)O2		MIC	resazurin	H37Ra			≥0.8 µg/mL
CC(C)[C@@H]1C2[C@H](O)[C@@H]3[C@@H](C)CC[C@@H]4[C@@H](C)C[C@@H]1[C@]34C(=O)C2(C)C		EC50		H37Rv			>6.25 µg/mL
CC(C)=C[C@H](O)C[C@@H](C)[C@H]1CC[C@@]2(C)C3=C(CC[C@]12C)[C@@]1(C)CCC(=O)C(C)(C)[C@@H]1CC3		MIC					>128 µg/mL
COCCc1c(C(=O)OC)[n+](=O)c2cc(Cl)c(Cl)cc2n1[O-]		EC99		H37Rv		inside macrophages	>1.56 µg/mL
NC(=O)c1ccc2c(=O)c3ccccc3oc2c1		MIC		H37Rv			>32 µg/mL
COc1ccc(CC(=O)c2c(OC)c3c(c4c2OC(C)(C)CC4)OC(C)(C)CC3)cc1OC		MIC bound	BACTEC	H37Rv			>12.5 µg/mL
O=Cc1ccc2c(c1)C(=O)c1nc3ccncc3c(=O)n1-2		MIC		H37Rv			0.5 µg/mL
C=C1C(=O)O[C@@H]2/C=C(\C)CC[C@H]3OC3(C)CC[C@@H]12		MIC					64 µg/mL
C[C@H]1COc2c(N3CC[C@H](N)C3)c(F)cc3c(=O)c(C(=O)O)cn1c23		Mean MIC		Rifampicin-resistant (5 strains pooled)			9.4 µg/mL
c1ccc(C(=NOCc2nnc(-c3ccccc3)o2)c2ccccc2)cc1		inhibition			12.5 µg/mL		7–56%
CCCCc1nc(Cl)c(/C=N/NC(N)=S)n1CCCN1CCN(Cc2ccc(Cl)cc2)CC1		MIC	agar	H37Rv			50 µg/mL
O=C1NC(=O)N(/N=C/c2ccc(-c3ccc(Cl)c(Cl)c3)o2)C1O		MIC bound	BACTEC	H37Rv			>12.5 µg/mL
CO[C@H]1/C=C/O[C@@]2(C)Oc3c(C)c(O)c4c(O)c(c5c(c4c3C2=O)NC2(CCN(CC(C)C)CC2)N=5)=NC(=O)/C(C)=C\C=C\[C@H](C)[C@H](O)[C@@H](C)[C@@H](O)[C@@H](C)[C@H](OC(C)=O)[C@@H]1C		MIC50		30 isolates/HIV+			0.5 µg/mL
COC(=O)c1cccc2oc3ccccc3c(=O)c12		MIC		H37Rv			>32 µg/mL
Cc1ccc(-n2cc(CSC3c4ccccc4-c4ccccc43)nn2)cc1		MIC99	broth dilution	H37Rv			135 µM
NNC(=O)c1ccncc1		MIC		Isolate 7			4 µg/mL
CCn1cc(C(=O)O)c(=O)c2cc(F)c(N3CCNC(C)C3)c(F)c21		MIC		H37Rv			0.5 µg/mL
Cc1ccc2c(=O)c3ccccc3oc2c1		MIC		H37Rv			>32 µg/mL
CC1(C)S[C@@H]2[C@H](NC(=O)[C@H](N)c3ccccc3)C(=O)N2[C@H]1C(=O)O		MIC		H37Rv			16–32 µg/mL
Cc1coc2c1C[C@]1(C)[C@@H](CC[C@H](O)[C@H]1C)C2		inhibition	resazurin	H37Rv	6.25 µg/mL		-2%
CO[C@H]1/C=C/O[C@@]2(C)Oc3c(C)c(O)c4c(O)c(c(/C=N/N5CCN(C)CC5)c(O)c4c3C2=O)NC(=O)/C(C)=C\C=C\[C@H](C)[C@H](O)[C@@H](C)[C@@H](O)[C@@H](C)[C@H](OC(C)=O)[C@@H]1C		Mean MIC		Rifampicin-resistant (5 strains pooled)			>100 µg/mL
COc1ccn(C2OC(COC(C)=O)C(OC3OC(COC(C)=O)C(OC(C)=O)C(OC(C)=O)C3OC(C)=O)C(OC(C)=O)C2OC(C)=O)c(=O)n1		inhibition	BACTEC	H37Rv	12.5 µg/mL		-14%
CCOC(=O)c1cn(-c2ccc(-c3ccccc3)nn2)nn1		inhibition		H37Rv	6.25 µg/mL		4%
Cc1ccc(NCCNCCO)c2c(=O)c3cc(O)ccc3sc12	VERO	MIC	BACTEC	H37Rv			12.5 µg/mL
O=S(=O)(Cc1cn(-c2ccc(Cl)c(Cl)c2)nn1)C1c2ccccc2-c2ccccc21		MIC99	broth dilution	Specimen 192			>219 µM
COc1cc2c(cc1Oc1ccc(OC)c3c1CC1c4c(cc(OC)c(OC)c4-3)CCN1C)CC1c3c(cc(OC)c(OC)c3-2)CCN1C		MIC		KM-R			12.5 µg/mL
C[C@H]1COc2c(N3C[C@@H](N)C4(CC4)C3)c(F)cc3c(=O)c(C(=O)O)cn1c23		Mean MIC		Rifampicin-resistant (5 strains pooled)			2.4 µg/mL
O=C(O)[C@H]1/C(=C/CO)O[C@@H]2CC(=O)N21		MIC		H37Rv			64 µg/mL
CC[C@H]1OC(=O)[C@H](C)[C@@H](O[C@H]2C[C@@](C)(OC)[C@@H](O)[C@H](C)O2)[C@H](C)[C@@H](O[C@@H]2O[C@H](C)C[C@H](N(C)C)[C@H]2O)[C@](C)(OC)C[C@@H](C)C(=O)[C@H](C)[C@@H](O)[C@]1(C)O		MIC90		30 isolates/HIV+			4 µg/mL
Clc1nc2cc3c(cc2n2cccc12)oc1ccccc13		inhibition	BACTEC	H37Rv	12.5 µg/mL		-23%
NC(=O)c1cnccn1		MIC	agar	H37Rv			50 µg/mL
CN(C)c1ccc(/C=N/N=C/c2ccco2)c(Cl)c1		MIC bound	BACTEC	H37Rv			>12.5 µg/mL
O=Cc1coc2ccc(Br)cc2c1=O		MIC		My 331/88			250 µM
Cc1cc(N)cc2c(=O)c3ccccc3oc12		MIC		H37Rv			>16 µg/mL
O=C1c2c(Cl)cccc2-n2c1nc1ccccc1c2=O		MIC		H37Rv			0.5 µg/mL
CN[C@@H]1[C@H](O[C@H]2[C@H](O[C@H]3[C@H](O)[C@@H](O)[C@H](N=C(N)N)[C@@H](O)[C@@H]3N=C(N)N)O[C@@H](C)[C@]2(O)C=O)O[C@@H](CO)[C@H](O)[C@H]1O		MIC		U113			≥512 µg/mL
N#Cc1ccc2c(=O)c3ccccc3oc2c1		MIC		H37Rv			>8 µg/mL
C=C1C(=O)O[C@H]2/C=C(\C)C[C@@H]3C=C(CC/C=C(\C)CC[C@H]12)C(=O)O3		MIC bound	BACTEC	H37Rv			>12.8 µg/mL
O=Cc1coc2ccc(F)cc2c1=O		MIC		My 331/88			500 µM
O=C1c2ccccc2-n2c1nc1ccc([N+](=O)[O-])cc1c2=O		inhibition	BACTEC	H37Rv	12.5 µg/mL		96%
CCCCc1nc(Cl)c(/C=N/NC(N)=S)n1CCCN1CCN(C(c2ccccc2)c2ccc(Cl)cc2)CC1		MIC	agar	H37Rv			50 µg/mL
CCN(CC)C(=O)COc1cc2c(O)c3c(O)c(C)c4c(c13)C(=O)[C@@](C)(O/C=C/[C@H](OC)[C@@H](C)[C@@H](OC(C)=O)[C@H](C)[C@H](O)[C@H](C)[C@@H](O)[C@@H](C)/C=C/C=C(/C)C(=O)N2)O4		MIC		H37Rv			0.2 µg/mL
C[C@H]1COc2c(N3CCN(C)CC3)c(F)cc3c(=O)c(C(=O)O)cn1c23		MIC		Isolate 14			0.25 µg/mL
CC1(C)S[C@@H]2[C@H](NC(=O)[C@H](C(=O)[O-])c3ccsc3)C(=O)N2[C@H]1C(=O)[O-].[Na+].[Na+]		MIC		13 strains			>128 µg/mL
O=C(O)C(CO)NC(=O)C1CCCN1C(=O)OCc1ccccc1		MIC bound	BACTEC	H37Rv			>12.5 µg/mL
O=Cc1coc2ccc([N+](=O)[O-])cc2c1=O		MIC		My 331/88			1000 µM
c1ccc(Nc2nnc(CON=C(c3ccccc3)c3ccccc3)o2)cc1		inhibition			12.5 µg/mL		7–56%
COC(=O)c1cn(-c2cccnn2)nn1		inhibition		H37Rv	6.25 µg/mL		2%
C=C(NC(=O)C(=C)NC(=O)c1csc(C2=N[C@@H]3c4csc(n4)[C@H]4NC(=O)c5csc(n5)[C@H]([C@](C)(O)[C@@H](C)O)NC(=O)C5CSC(=N5)/C(=C/C)NC(=O)[C@H]([C@@H](C)O)NC(=O)c5csc(n5)[C@]3(CC2)NC(=O)C(C)NC(=O)C(=C)NC(=O)C(C)NC(=O)C(C(C)CC)NC2C=Cc3c([C@H](C)O)cc(nc3[C@H]2O)C(=O)O[C@@H]4C)n1)C(N)=O		inhibition	resazurin	H37Rv	6.25 µg/mL		88%
NC(=O)c1cnccn1		MIC	resazurin	H37Ra			3.125 µg/mL
C=CCNc1nnc(CCO/N=C(\C)c2ccccc2)o1		inhibition			12.5 µg/mL		7–56%
O=c1cc2oc3cc(O)c(O)cc3c(-c3ccccc3)c-2cc1O		inhibition	BACTEC	H37Rv	12.5 µg/mL		-30%
CCCCc1nc(Cl)c(/C=N/NC(N)=S)n1CCCN1CCN(c2ccc(Cl)cc2)CC1		MIC	agar	H37Rv			25 µg/mL
CC1NC(=O)C2Cc3ccc(O)c(c3)Oc3ccc(cc3)[C@H](O)C(C(=O)N2C)N(C)C(=O)C(C)NC(=O)C(Cc2ccc(O)cc2)N(C)C(=O)C(C)NC1=O		inhibition	resazurin	H37Rv	6.25 µg/mL		0%
NNC(=O)c1ccncc1		Mean MIC		Rifampicin-resistant (5 strains pooled)			22 µg/mL
O=C(NN(C(=O)c1ccccc1)c1cccs1)c1ccccc1		MIC bound	BACTEC	H37Rv			>12.5 µg/mL
COC(OC)c1ccc2c(c1)C(=O)c1nc3ccncc3c(=O)n1-2		MIC		H37Rv			0.13 µg/mL
O=[N+]([O-])c1nc2ccccc2[nH]1		MIC bound	resazurin	H37Rv			>6.25 µg/mL
CCCCc1nc(Cl)c(/C=N/NC(N)=S)n1CCCN1CCN(CCc2ccccc2)CC1		MIC	agar	H37Rv			6.25 µg/mL
O=c1cc(-c2cccs2)ss1		MIC	BACTEC	H37Rv			12.5 µg/mL
COc1ccc(C2C3=C(CCCC3=O)OC3=C2C(=O)CCC3)cc1		MIC	resazurin	H37Ra			≥1.6 µg/mL

For reference, 4 entries again:

SMILES	cells	read-out	read by	strain or isolate	tested at	conditions	result
NNC(=O)c1ccncc1		Mean MIC		Rifampicin-resistant (5 strains pooled)			22 µg/mL
c1ccc(Nc2nnc(CON=C(c3ccccc3)c3ccccc3)o2)cc1		inhibition			12.5 µg/mL		7–56%
O=Cc1coc2ccc([N+](=O)[O-])cc2c1=O		MIC		My 331/88			1000 µM
O=C(O)C(CO)NC(=O)C1CCCN1C(=O)OCc1ccccc1		MIC bound	BACTEC	H37Rv			>12.5 µg/mL

Blank or dashed fields: not listed here. A number after MIC or MFC names an inhibition level or a share of isolates. Percent inhibition refers to the dose given; in toxicity tests it is the harm to the cells. a–b is a range or a potency band. MIC bound: limit read from a one-dose screen. Lines come from different laboratories, so protocols vary.